Potato spindle tuber viroid, loop 15: variant abundance in plants

Values reported by Wu et al. 2024 (doi:10.1371/journal.ppat.1012142).

The pool varies loop 15 of the PSTVd intermediate strain in the pattern GGAAACCGNNNNNNC; wild type is GGAAACCGCUACUAC (upper and lower strand joined, each 5' to 3', the first 7 letters being the upper strand, closing pairs included).

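A pool of all variants was put on leaves of three Nicotiana benthamiana plants. Progeny were sequenced from the inoculated region (day 5), the margin of the inoculated leaf (day 10) and systemic leaves (day 12).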

Numbers give reads per thousand; 0 = not seen among the reads, higher = more abundant.
Each site shows the three plants.
"Pool" is the share in the plasmid pool used as inoculum, on the same scale.
The inoculated region was read from the minus strand, the other sites from the plus strand.
With 43,870-66,106 reads a sample, very low values are single reads.
Wild type was 33.9 per thousand in the pool and the most common sequence in every sample (inoculated region 202, 200, 159; leaf margin 724, 746, 710; systemic leaves 856, 883, 880).
The authors trace changes outside the varied positions to PCR and sequencing errors or to mutation in the plant; presence does not show that a variant is infectious alone.

sequence | pool | inoculated region | leaf margin | systemic leaves
GGAAACCGGCUAAAC | 0.160 | 0.131 / 0.112 / 0.0952 | 0 / 0 / 0 | 0.0483 / 0 / 0
GGAAACCGGCUAACC | 0.224 | 0.115 / 0.0964 / 0.133 | 0 / 0 / 0 | 0 / 0 / 0.0228
GGAAACCGGCUAAGC | 0.240 | 0.0983 / 0.129 / 0.0571 | 0.0162 / 0.0223 / 0 | 0.0161 / 0 / 0
GGAAACCGGCUAAUC | 0.256 | 0.0655 / 0.0643 / 0.209 | 0 / 0 / 0 | 0 / 0 / 0
GGAAACCGGCUACAC | 0.304 | 0.115 / 0.0803 / 0.0762 | 0.0162 / 0.0223 / 0.0200 | 0.0161 / 0 / 0
GGAAACCGGCUACCC | 0.176 | 0.0819 / 0.129 / 0.114 | 0 / 0 / 0.0401 | 0 / 0 / 0
GGAAACCGGCUACGC | 0.176 | 0.0655 / 0.0321 / 0.0952 | 0.0162 / 0.0223 / 0.0200 | 0 / 0 / 0
GGAAACCGGCUACUC | 0.160 | 0.0983 / 0.129 / 0.0952 | 0 / 0 / 0 | 0 / 0 / 0
GGAAACCGGCUAGAC | 0.208 | 0.131 / 0.112 / 0.0952 | 0 / 0 / 0 | 0 / 0 / 0
GGAAACCGGCUAGCC | 0.208 | 0.115 / 0.0964 / 0.171 | 0 / 0 / 0.0200 | 0 / 0 / 0
GGAAACCGGCUAGGC | 0.256 | 0.0983 / 0.0803 / 0.0571 | 0 / 0.0223 / 0.0401 | 0 / 0 / 0
GGAAACCGGCUAGUC | 0.208 | 0.0491 / 0.0643 / 0.133 | 0 / 0 / 0.0200 | 0.0161 / 0 / 0
GGAAACCGGCUAUAC | 0.192 | 0.147 / 0.0643 / 0.0762 | 0 / 0 / 0.0401 | 0 / 0 / 0
GGAAACCGGCUAUCC | 0.176 | 0.180 / 0.0643 / 0.133 | 0 / 0 / 0 | 0 / 0 / 0
GGAAACCGGCUAUGC | 0.208 | 0.0655 / 0.129 / 0.0571 | 0 / 0 / 0 | 0 / 0 / 0
GGAAACCGGCUAUUC | 0.0960 | 0.0491 / 0.129 / 0.0952 | 0 / 0 / 0 | 0 / 0 / 0
GGAAACCGGCUCAAC | 0.160 | 0.0983 / 0.0803 / 0.114 | 0 / 0.0223 / 0 | 0 / 0 / 0
GGAAACCGGCUCACC | 0.320 | 0.0819 / 0.193 / 0.171 | 0 / 0.0223 / 0.0601 | 0 / 0.0151 / 0
GGAAACCGGCUCAGC | 0.192 | 0.0655 / 0.161 / 0.0762 | 0.0162 / 0.0445 / 0 | 0 / 0 / 0
GGAAACCGGCUCAUC | 0.384 | 0.115 / 0.0482 / 0.152 | 0.0162 / 0 / 0 | 0.0322 / 0 / 0
GGAAACCGGCUCCAC | 0.256 | 0.115 / 0.0482 / 0.0190 | 0 / 0.0445 / 0 | 0.0161 / 0 / 0
GGAAACCGGCUCCCC | 0.272 | 0.0983 / 0.0482 / 0.0762 | 0 / 0.0223 / 0 | 0 / 0 / 0
GGAAACCGGCUCCGC | 0.256 | 0.115 / 0.0964 / 0.0571 | 0 / 0 / 0 | 0 / 0 / 0
GGAAACCGGCUCCUC | 0.224 | 0.0819 / 0.145 / 0.0952 | 0 / 0 / 0 | 0 / 0 / 0
GGAAACCGGCUCGAC | 0.256 | 0.0491 / 0.112 / 0.0952 | 0.0323 / 0 / 0 | 0 / 0 / 0
GGAAACCGGCUCGCC | 0.304 | 0.0655 / 0.0803 / 0.0571 | 0 / 0 / 0 | 0 / 0 / 0
GGAAACCGGCUCGGC | 0.256 | 0.0819 / 0.0321 / 0.0952 | 0 / 0 / 0 | 0 / 0 / 0
GGAAACCGGCUCGUC | 0.144 | 0.0983 / 0.0643 / 0.114 | 0 / 0.0223 / 0.0200 | 0 / 0 / 0
GGAAACCGGCUCUAC | 0.256 | 0.0655 / 0.0964 / 0.0952 | 0.0323 / 0.0223 / 0 | 0.0161 / 0 / 0
GGAAACCGGCUCUCC | 0.224 | 0.147 / 0.0643 / 0.133 | 0.0162 / 0 / 0 | 0 / 0 / 0
GGAAACCGGCUCUGC | 0.256 | 0.115 / 0.0643 / 0.133 | 0 / 0 / 0.0200 | 0 / 0 / 0
GGAAACCGGCUCUUC | 0.224 | 0.0655 / 0.0964 / 0.0571 | 0 / 0 / 0.0200 | 0 / 0 / 0
GGAAACCGGCUGAAC | 0.240 | 0.147 / 0.0803 / 0.0952 | 0.0162 / 0 / 0.0401 | 0.0161 / 0 / 0
GGAAACCGGCUGACC | 0.192 | 0.0983 / 0.0964 / 0.0762 | 0 / 0 / 0.0200 | 0 / 0 / 0
GGAAACCGGCUGAGC | 0.144 | 0.0655 / 0.0643 / 0.114 | 0.0162 / 0.0223 / 0 | 0.0161 / 0 / 0
GGAAACCGGCUGAUC | 0.224 | 0.131 / 0.112 / 0.0762 | 0.0162 / 0.0223 / 0.0200 | 0 / 0 / 0
GGAAACCGGCUGCAC | 0.208 | 0.0328 / 0.0482 / 0.0190 | 0 / 0 / 0.0401 | 0 / 0 / 0
GGAAACCGGCUGCCC | 0.352 | 0.0655 / 0.0321 / 0.133 | 0.0162 / 0 / 0 | 0.0161 / 0 / 0
GGAAACCGGCUGCGC | 0.256 | 0.0328 / 0.0643 / 0.0381 | 0.0162 / 0.0223 / 0.0200 | 0 / 0 / 0
GGAAACCGGCUGCUC | 0.176 | 0.0655 / 0.0803 / 0.0571 | 0 / 0 / 0.0200 | 0 / 0 / 0
GGAAACCGGCUGGAC | 0.176 | 0.180 / 0.129 / 0.0571 | 0.0162 / 0 / 0.0401 | 0 / 0 / 0
GGAAACCGGCUGGCC | 0.208 | 0.0983 / 0.0964 / 0.209 | 0 / 0 / 0.0200 | 0 / 0 / 0
GGAAACCGGCUGGGC | 0.240 | 0.0164 / 0.225 / 0.114 | 0.0162 / 0.0445 / 0.0200 | 0 / 0 / 0
GGAAACCGGCUGGUC | 0.160 | 0.0819 / 0.0964 / 0.0762 | 0 / 0 / 0.0401 | 0.0161 / 0 / 0.0228
GGAAACCGGCUGUAC | 0.320 | 0.262 / 0.289 / 0.343 | 0.194 / 0.0668 / 0.220 | 0.0161 / 0.0605 / 0.114
GGAAACCGGCUGUCC | 0.208 | 0.115 / 0.0482 / 0.114 | 0.0162 / 2.05 / 0 | 0.0161 / 0 / 0
GGAAACCGGCUGUGC | 0.240 | 0.0983 / 0.0321 / 0.0571 | 0 / 0.0445 / 0 | 0 / 0 / 0
GGAAACCGGCUGUUC | 0.160 | 0.147 / 0.0964 / 0.0952 | 0 / 0.0223 / 0 | 0 / 0 / 0
GGAAACCGGCUUAAC | 0.336 | 0.0491 / 0.112 / 0.0381 | 0 / 0.0445 / 0.0601 | 0.0161 / 0 / 0
GGAAACCGGCUUACC | 0.192 | 0.0491 / 0.177 / 0.0762 | 0.0323 / 0 / 0.0200 | 0 / 0 / 0